# Human monoclonal antibodies against the spike receptor-binding domain (heavy:light variable regions). IC50 against pseudoviruses bearing the spike of naturally observed variants; lower = stronger; >10 µg/ml means not reached at the top dose. No active / inactive call. The stated detection limit is 0.0005 µg/ml; values near or below 0.001 µg/ml lie at the floor of the assay.
# B1: BD56-175 (protein)
# chain 1: EVQLVQSGAEVKKPGESLRISCKGSGYSFTSSWIGWVRQMPGKGLEWMGIIYPHDSDTRYSPSFQGQVTISADKAISTAYLQWSSLKASDTAMYYCARDPGGCSSGSCYGLDVWGQGTTVTVSS
# chain 2: QSVLTQPPSASGTPGQRVTISCSGSSSNIGSHAVNWYRQLPGTAPILLLYNNNQRPSGVPDRFSGSKSGTLASLAISGLQSEDEADYYCAAWDDSLIGSYVFGTGTKVTAL
# B2: BD56-171 (protein)
# chain 1: QVQVVESGGGVVQPGRSLRLSCAASGFTFSSYAMHWVRQAPGKGLEWVAVVLYDGSNKYYADSVQGRFTISRDNSRNALFLQMNSLRAEDTAVYYCARDRSPQQLLDDYYYYYGMDVWGQGTTVTVSS
# chain 2: SYELTQPPSVSVSPGQTASITCSGPKLGDKYACWYQQKPGQSPVLIIYQDDRRPSGIPERFSGSNSGNTATLTISGTQTMDEADYFCQAWDSSTPYVFGTGTKVTVL
# B3: BD56-170 (protein)
# chain 1: QVQLVESGGGVVQPGRSLRLSCAASGFTFNTYGMHWVRQAPGKGLEWVTLIWYDGSNKYYADSVKGRFTISRDNSKNTLYLQMNTLRAEDTAIYYCARDQASYHTVAGTSPYFDYWGQGTLVTVSS
# chain 2: SYELTQPPSVSVSPGQTARITCSRDTLPKQYASWYQQKPGQAPVLVIYKDSERPSGIPERFSGSSSGTTVTLTISGVQAEDEADYYCQSTDSSATYAVFGGGTQLTVL
# B4: BD56-168 (protein)
# chain 1: QVQLVQSGAEVKKPGASVKVSCKASGYTFTSYGISWVRQAPGQGLEWMGWINTYNANTNYAQKFQDRVTLTTDTSTNTVYMELRSLRSDDTAVYYCARVEGFYSDSSVYFFDYWGQGILVTVSS
# chain 2: EIVMTQSPATLSVSPGERATLSCRASQSVSTNVGWYQQKPGQAPRLLIYAASTRATGVPARFSGSGSGTEFTLTISSLQSEDFAVYYCQQYDNWPPSWTFGQGTKVEIK
# B5: BD56-180 (protein)
# chain 1: EVQLVESGGGLVQPGRSLRLSCTGSGFIFGVYAVSWVRQAPGKGLEWVGFIRSKAYGGAIEYAASVKGRFTISRDDSKNIAYLQMNSLKTEDTAVYYCVRVDQWLSSPQTHGDFFDYWGQGTLVTVSS
# chain 2: QSALTQPASVSGSPGQSITISCTGTSSDVGGYDYVSWYQQHPGKAPKLLIYDVTNRPSGVSNRFSGSKSGSTASLTISGLQAEDEAEYYCSSYRTSTIFVFGSGTKVTVL
# B6: BD56-165 (protein)
# chain 1: EVQLVESGGGWVQRGGSLRLSCAASGFTYSSYSLNWVRQAPGKGLEWVSSISPSSDIKYYADSVKGRFTISRDNARNSLYLQMNSLRDEDTAVYFCARDSKTYTSGPSAEWFDPWGQGTLVTVSS
# chain 2: SYVLTQPPSVSVAPGKTARITCGGDSIGSKSVHWYQQKPGQAPIVVIYYDSDRPSGIPERFSGSNSGNTATLAISRVEAGDEADYYCQVWDTGVVFGGGTKLTVL
# Molecular target: SARS-CoV-2 Omicron BA.1 spike pseudovirus
# Experiment: pseudovirus neutralization IC50; higher = weaker neutralization
# Description: (§1)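 Single-round VSV luciferase pseudovirus mixed with antibody dilutions for 1 h and put on Huh-7 cells for about a day; IC50 from the dose curve.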
row,Binder,pseudovirus neutralization IC50
1,B1,3.97 µg/mL
2,B2,0.97 µg/mL
3,B3,1.72 µg/mL
4,B4,3.12 µg/mL
5,B5,> 10 µg/mL
6,B6,> 10 µg/mL

# Molecular target: SARS-CoV-2 Omicron BA.2 spike pseudovirus
# Experiment: as above
# Description: as §1
row,Binder,pseudovirus neutralization IC50
1,B1,2.56 µg/mL
2,B2,1.09 µg/mL
3,B3,2.45 µg/mL
4,B4,3.56 µg/mL
5,B5,> 10 µg/mL
6,B6,> 10 µg/mL

# Molecular target: SARS-CoV-2 Omicron BA.2.75 spike pseudovirus
# Experiment: as above
# Description: as §1
row,Binder,pseudovirus neutralization IC50
1,B1,4.23 µg/mL
2,B2,0.904 µg/mL
3,B3,2.7 µg/mL
4,B4,4.69 µg/mL
5,B5,> 10 µg/mL
6,B6,> 10 µg/mL

# Molecular target: SARS-CoV-2 Omicron BA.5 spike pseudovirus
# Experiment: as above
# Description: as §1
row,Binder,pseudovirus neutralization IC50
1,B1,3.94 µg/mL
2,B2,0.824 µg/mL
3,B3,2.52 µg/mL
4,B4,2.9 µg/mL
5,B5,> 10 µg/mL
6,B6,> 10 µg/mL

# Molecular target: SARS-CoV-2 Omicron BQ.1.1 spike pseudovirus
# Experiment: as above
# Description: as §1
row,Binder,pseudovirus neutralization IC50
1,B1,6.33 µg/mL
2,B2,0.786 µg/mL
3,B3,2.43 µg/mL
4,B4,2.46 µg/mL
5,B5,> 10 µg/mL
6,B6,> 10 µg/mL

# Molecular target: SARS-CoV-2 Omicron XBB spike pseudovirus
# Experiment: as above
# Description: as §1
row,Binder,pseudovirus neutralization IC50
1,B1,7.52 µg/mL
2,B2,1.14 µg/mL
3,B3,3.06 µg/mL
4,B4,3.57 µg/mL
5,B5,> 10 µg/mL
6,B6,> 10 µg/mL

# Molecular target: SARS-CoV-2 early D614G spike pseudovirus
# Experiment: as above
# Description: as §1
row,Binder,pseudovirus neutralization IC50
1,B1,> 10 µg/mL
2,B2,0.98 µg/mL
3,B3,2.36 µg/mL
4,B4,> 10 µg/mL
5,B5,> 10 µg/mL
6,B6,> 10 µg/mL

# Source: the supplement of paper PMC9931576
